Patent US20140072553A1 (MORPHOTEK, published 2014)

Columns and labels:
bovine serum albumin [1] = molecular target: T1, bovine serum albumin (bovine, UniProt P02769 25-607); assay: antigen panel ELISA, hybridoma supernatant on coated antigen (FIG. 2)
hen egg lysozyme [2] = molecular target: T2, hen egg lysozyme (hen, UniProt P00698 19-147); assay: as above
T2 construct: also called HEL
T2 sequence (looked up): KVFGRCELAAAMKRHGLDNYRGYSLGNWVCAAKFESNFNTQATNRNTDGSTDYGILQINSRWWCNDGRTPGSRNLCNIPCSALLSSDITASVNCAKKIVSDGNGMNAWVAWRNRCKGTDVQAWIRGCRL

chicken albumin [3] = molecular target: T3, chicken albumin (chicken, UniProt P01012 2-386); assay: as above
T3 construct: also called CAB
T3 sequence (looked up): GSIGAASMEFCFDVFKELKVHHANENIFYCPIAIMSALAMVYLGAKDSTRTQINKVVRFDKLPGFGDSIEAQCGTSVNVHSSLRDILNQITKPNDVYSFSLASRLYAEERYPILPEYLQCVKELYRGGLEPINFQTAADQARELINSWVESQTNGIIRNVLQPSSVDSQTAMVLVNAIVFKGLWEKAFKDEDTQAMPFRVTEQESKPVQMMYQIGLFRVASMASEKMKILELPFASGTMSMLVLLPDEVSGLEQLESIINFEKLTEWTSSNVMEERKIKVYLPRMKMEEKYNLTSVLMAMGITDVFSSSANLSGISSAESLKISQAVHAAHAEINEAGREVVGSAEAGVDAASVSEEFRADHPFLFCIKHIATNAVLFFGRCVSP

human mesothelin [4] = molecular target: T4, human mesothelin (human, UniProt Q13421 296-598); assay: as above
human GM-CSF [5] = molecular target: T5, human GM-CSF (human, UniProt P04141 18-144); assay: as above
bovine serum albumin [6] = molecular target: T1, bovine serum albumin; assay: antigen panel ELISA, hybridoma supernatant on coated antigen (FIG. 6)
hen egg lysozyme [7] = molecular target: T2, hen egg lysozyme; assay: as above
chicken albumin [8] = molecular target: T3, chicken albumin; assay: as above
human mesothelin [9] = molecular target: T4, human mesothelin; assay: as above
human GM-CSF [10] = molecular target: T5, human GM-CSF; assay: as above

Measured: binding result

B1: human anti-SEB monoclonal antibody F10 (antibody, V domains shown)
VH: QVQLVQSGGGLVKPGGSLRLSCAASGFTFSSYSMNWVRQAPGKGLEWVSSISSSSSYIYYADSVKGRFTISRDNAKNSLYLQMNSLRAEDTAVYYCARGGVAGRTEIYYYYYGMDVWGQGTTVTVSS
VL: not shown
no binding: bovine serum albumin [1] | hen egg lysozyme [2] | chicken albumin [3] | human mesothelin [4] | human GM-CSF [5]

B2: human anti-SEB monoclonal antibody 79G9 (antibody, V domains shown)
VH: EVQLEESGAGLLKPSETLSLTCAVYGGSFSGYYWSWIRQAPGKGLEWIGEIDHSGTTNYNPSLKSRVTISVETSKNQFSLRLSSVTAADSAVYYCASSGYCSHGLCPQEDWGQGTLVTVSS
VL: DIELTQSPSFLSASVGDRVAITCRASQGISNYLAWYQQKPGKAPKLLIYAAFVLQSGVPSRFSGSGSGTEFTLTISNLQPEDFATYYCQQLNSYPRAFGPGTKVDIKR
no binding: bovine serum albumin [6] | hen egg lysozyme [7] | chicken albumin [8] | human mesothelin [9] | human GM-CSF [10]

B3: human anti-SEB monoclonal antibody 100C9 (antibody, V domains shown)
VH: EVQLVESGGGLVQPGGSLRLSCSASGFTFSSYWMSWVRQAPGKGLEWVANIIQDGSEKYYADSVKGRLTISRDNAKNSLYLQMNSLRVDDTAVYYCARGYEGCSATRCYLYYFDYWGPGTLVTVSS
VL: SYVLTQPPSVSVSPGQTARITCSGDALPKQYTYWYQQKPGQAPVVVIYKDSERPSGIPERFSGSSSGTTVTVTISGVQAEDEADYYCQSADSSGTSLVFGGGTKLTVLG
no binding: bovine serum albumin [6] | hen egg lysozyme [7] | chicken albumin [8] | human mesothelin [9] | human GM-CSF [10]
